Assay results as given in ChEMBL document CHEMBL5625167, “In vitro bioevaluation and docking study of dihydrosphingosine and ethambutol analogues against sensitive and multi-drug resistant Mycobacterium tuberculosis” (Eur J Med Chem, 2023).

Tests used:
[1] = Selectivity index, ratio of CC50 for African green monkey Vero cells to MIC for isoniazid, rifampicin, ethambutol and pyrazinamide sensitive Mycobacterium tuberculosis H37Rv ATCC 25618
[2] = Selectivity index, ratio of CC50 for mouse J774.A1 cells to MIC for isoniazid, rifampicin, ethambutol and pyrazinamide sensitive Mycobacterium tuberculosis H37Rv ATCC 25618
[3] = Selectivity index, ratio of CC50 for human HepG2 cells to MIC for isoniazid, rifampicin, ethambutol and pyrazinamide sensitive Mycobacterium tuberculosis H37Rv ATCC 25618
[4] = test system: Mycobacterium tuberculosis; assay: Potency index, ratio of ethambutol MIC to test compound MIC for antimycobacterial activity against isoniazid, rifampicin, ethambutol, streptomycin and levofloxacin resistant Mycobacterium tuberculosis clinical isolate 1576 incubated for 7 days by resazurin dye based colorimetric method analysis; conditions: time 7 day

Structure (SMILES)	Selectivity Index [1]	Selectivity Index [2]	Selectivity Index [3]	Ratio [4]
CC[C@@H](CO)NCCN[C@@H](CC)CO [ETHAMBUTOL]	178	> 401	> 401	–
CCCCCCCCCCCCCCCC(CO)NCCCCCC (stereo not drawn)	1.77	0.37	–	45
CCCCCCCCCCCCCCCC(CNCC)NC(=O)OC(C)(C)C (stereo not drawn)	1.11	1.24	6.69	180
CCCCCCCCCCCCCCCC(CO)N(CCCC)CCCC (stereo not drawn)	5.9	2.8	10.3	360
CCCCCCCCCCCCCCCCCCCC(N)COCc1ccccc1 (stereo not drawn)	3.93	0.72	–	90
CCCCCCCCCCCC(CO)NCCCC (stereo not drawn)	0.81	0.67	–	90
CCCCCCCCCCCCCCCC(CN)NC(=O)OC(C)(C)C (stereo not drawn)	1.24	0.29	–	164
CCCCCCCCCCCCCCCCCC(CO)NCCCC (stereo not drawn)	4.61	0.97	–	90
CCCCCCCCCCCCCCCCCCCC(CN)NC(=O)OC(C)(C)C (stereo not drawn)	1.61	1.12	–	45
CCCCCCCCCCCCCCCC(CO)NCCCC (stereo not drawn)	1.15	0.37	–	45
CCCCCCCCCCCC(CO)NCC (stereo not drawn)	< 0.58	< 0.16	–	45
CCCCCCCCCCCCCCCCCC(COCc1ccccc1)NCCCCCC (stereo not drawn)	1.88	1.85	–	45
CCCCCCCCCCCCCCCC(N)CN (stereo not drawn)	< 3	< 3.39	–	7
CCCCCCCCCCCCCCCCCCCC(CO)N(CC)CC (stereo not drawn)	< 1.83	< 1.59	–	< 46
CCCCc1ccc(CCCCCCCC(N)CO)cc1 (stereo not drawn)	5.31	2.65	6.35	1440
CCCCCCCCCCCCCCCCCC(CO)NCC (stereo not drawn)	1.47	8.44	12	180
CCCCCCCCCCCCCCCCCC(N)CO (stereo not drawn)	6.65	1.21	24.9	360
CCCCCCCCCCCCCCCC(CO)NCCCCCCCCCC (stereo not drawn)	1.62	0.86	–	45
CCCCCCCCCCCCCCCC(N)COCc1cc(OC)c(OC)c(OC)c1 (stereo not drawn)	2.21	14.9	18.6	360
CCCCCCCCCCCCCCCC(N)CNCC (stereo not drawn)	1.25	0.8	–	180
CCCCCCCCCCCC(CNCC)NC(=O)OC(C)(C)C (stereo not drawn)	0.51	0.33	–	45
CCCCc1ccc(CCCCCCCCCC(CO)NC(=O)OC(C)(C)C)cc1 (stereo not drawn)	0.97	0.49	–	180

Structure (SMILES)	Selectivity Index [1]	Selectivity Index [2]	Selectivity Index [3]	Ratio [4]
CCCCCCCCCCCC(N)CO (stereo not drawn)	0.64	0.04	–	90
CCCCCCCCCCCCCCCC(COCc1ccccc1)NCCCCCC (stereo not drawn)	0.84	0.85	–	45
CCCCCCCCCCCCCCCC(COCc1ccccc1)NCC (stereo not drawn)	1.63	1.35	14.8	180
CCCCCCCCCCCCCCCC(CNCCCCCC)NC(=O)OC(C)(C)C (stereo not drawn)	2.86	2.59	10.8	360
CCCCc1ccc(CCCCCCCCCC(N)CO)cc1 (stereo not drawn)	3.17	1.47	5.71	1440
CCCCCCCCCCCCCCCC(CO)NCC (stereo not drawn)	1.73	1.43	–	90
CCCCCCCCCCCCCCCC(CNCC(=O)OCC)NC(=O)OC(C)(C)C (stereo not drawn)	1.22	0.87	–	90
CCCCCCCCCCCCCCCC(N)COCc1ccccc1 (stereo not drawn)	9.37	1.32	22	640
CCCCCCCCCCCCCCCC(CO)N(CC)CC (stereo not drawn)	6.27	5.83	–	–
CCCCc1ccc(CCCCCCCC(CO)NC(=O)OC(C)(C)C)cc1 (stereo not drawn)	0.88	0.4	–	180
CCCCCCCCCCCCCCCC(CNCCCC)NC(=O)OC(C)(C)C (stereo not drawn)	2.54	2.65	17	360
CCCCc1ccc(CCCCCC(CO)NC(=O)OC(C)(C)C)cc1 (stereo not drawn)	0.8	0.22	–	180
CCCCCCCCCCCCCCCCCCCC(CNCC)NC(=O)OC(C)(C)C (stereo not drawn)	8.43	1.18	39.4	720
CCCCc1ccc(CCCCCC(N)CO)cc1 (stereo not drawn)	0.43	0.17	–	45
CCCCCCCCCCCCCCCC(CN=[N+]=[N-])NC(=O)OC(C)(C)C (stereo not drawn)	< 1	< 1.63	–	180
CCCCCCCCCCCCCCCCCCCC(COCc1ccccc1)NCC (stereo not drawn)	4.24	3.27	5.94	180
CCCCCCCCCCCC(CO)N(CC)CC (stereo not drawn)	0.57	0.28	–	90
CCCCCCCCCCCCCCCC(N)CO (stereo not drawn)	82.2	6.71	85.1	950
CCCCCCCCCCCCCCCCCC(CO)N(CC)CC (stereo not drawn)	< 1.34	< 0.77	–	< 45
CCCCCCCCCCCCCCCCCC(CN)NC(=O)OC(C)(C)C (stereo not drawn)	1.11	1.91	7.19	180
CCCCCCCCCCCCCCCCCC(N)COCc1ccccc1 (stereo not drawn)	2.15	1.46	–	45
